Consider one sequence from paper PMC13424409.

Construct, isoform or probe ends are uncertain for at least one entry.

The test system of this data set is MBP-NbNTL9 + His-NbCRWN2 + His-TYLCCNV V2. As to the kind of experiment: EMSA. The conditions noted are these: 20 nM probe, 1 ug NTL9 + 2 ug CRWN2 + 1-3 ug V2, V2 enhances binding, Chemiluminescent EMSA Kit (Beyotime GS009), 20 or 50 nM biotinylated probe, pH and temperature not stated, recombinant protein, label: 3' biotin. A general note: In EMSA bound probe runs differently from free probe, usually more slowly.

For “TAATGCTTTAGGTGGTGAAGTATAG (double strand) [Pro-PR1-1]”, the binding result was “binds”.
